Measurements reported in PubChem BioAssay AID624099 (ICCB-Longwood, 2012).
Assay: 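Knock-downs relieving repression by E2 of an HPV18 LCR luciferase reporter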 (primary screen). Cells: human C33A cervical carcinoma cells (HPV-negative) stably expressing BPV1 E2 and an HPV18 LCR luciferase reporter. Knock-down reagent: siRNA pool against human genes, 40 nM. Duration: 72 h. Measurement: 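HPV18 LCR reporter light per well, converted to plate-wise z-scores that exclude control wells, and averaged over triplicate plates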. Direction: mean z-score and z-score: higher = stronger reporter signal, weaker E2 silencing. Rule for the call: 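Hit if mean z-score reaches 2 and two or more of three replicate z-scores also reach 2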.
Here is one part, drawn at random, of about 21,000 reagents. 497 of them (2.4%) count as active. 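Higher z means weaker E2 silencing; only reporter increases were scored, and knock-downs that hurt cell survival may mask genuine repressor factors.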 Entries without a mark were called inactive.

Target gene	PubChem SID	mean z-score	z-score, replicate A	z-score, replicate B	z-score, replicate C
CCR5 (GeneID 1234)	SID134310650	4.79 (active)	5.11	4.8	4.46
MACROH2A1 (GeneID 9555)	SID134316273	1.25	1.09	0.98	1.68
BTG2 (GeneID 7832)	SID134316588	0.33	0.23	0.27	0.49
LOC400197 (retired record) (GeneID 400197)	SID134328475	0.37	0.36	0.36	0.38
PGBD5 (GeneID 79605)	SID134321523	-0.7	-0.49	-1.01	-0.62
NOP14 (GeneID 8602)	SID134325967	-0.4	-0.41	-0.26	-0.52
C7orf57 (GeneID 136288)	SID134326325	-1.97	-2.21	-1.86	-1.85
MYADM (GeneID 91663)	SID134322149	0.35	0.26	0.31	0.48
TUBA8 (GeneID 51807)	SID134314128	-0.17	0.13	-0.32	-0.33
KBTBD7 (GeneID 84078)	SID134319736	0.24	-0.11	0.01	0.82
LOC388623 (retired record) (GeneID 388623)	SID134326976	-0.27	0.22	-0.26	-0.76
ZFP2 (GeneID 80108)	SID134318687	-0.08	-0.05	-0.04	-0.16
DDX4 (GeneID 54514)	SID134317154	-0.26	-0.46	-0.34	0.01
TPI1 (GeneID 7167)	SID134314491	0.19	-0.14	0.71	0
FZD5 (GeneID 7855)	SID134310947	-0.54	-0.27	-0.52	-0.82
CCL11 (GeneID 6356)	SID134312763	0.32	0.25	0.42	0.31
KCNA7 (GeneID 3743)	SID134311635	-0.75	-0.55	-0.82	-0.89
DENND10P1 (GeneID 55855)	SID134324193	2.73 (active)	2.9	3.01	2.27
F2RL2 (GeneID 2151)	SID134310936	0.19	0.6	0.04	-0.08
KIF17 (GeneID 57576)	SID134325272	0.84	0.95	0.51	1.05
TTC17 (GeneID 55761)	SID134319579	0.58	0.29	-0.23	1.7
IL17RE (GeneID 132014)	SID134312882	-0.95	-0.68	-1.01	-1.18
ADAMTSL1 (GeneID 92949)	SID134317662	0.13	0.1	0.2	0.08
ADAMTSL1 (GeneID 92949)	SID134320985	0.51	0.04	0.97	0.39
LPAR6 (GeneID 10161)	SID134310547	0.43	0.55	0.25	0.48
DHPS (GeneID 1725)	SID134311945	0.04	0.14	0.07	-0.08
IL24 (GeneID 11009)	SID134312911	-1.03	-1.04	-0.94	-1.12
RAB10 (GeneID 10890)	SID134315265	1	1.04	1.16	0.8
DRD4 (GeneID 1815)	SID134310927	-0.38	-0.4	-0.41	-0.34
ZIC4 (GeneID 84107)	SID134321442	1.11	1.12	1.11	1.09
DHX30 (GeneID 22907)	SID134321146	-0.61	-0.69	-0.5	-0.66

Records above with an active call (2):
Target gene	PubChem SID	mean z-score	z-score, replicate A	z-score, replicate B	z-score, replicate C
CCR5 (GeneID 1234)	SID134310650	4.79 (active)	5.11	4.8	4.46
DENND10P1 (GeneID 55855)	SID134324193	2.73 (active)	2.9	3.01	2.27

Continued.
Target gene	PubChem SID	mean z-score	z-score, replicate A	z-score, replicate B	z-score, replicate C
ERVMER61-1 (GeneID 339476)	SID134327030	-0.73	-0.93	-0.63	-0.63
LHX5 (GeneID 64211)	SID134317274	1.06	0.73	1.12	1.31
CLPS (GeneID 1208)	SID134313150	-1.51	-1.71	-1.28	-1.56
ZBTB1 (GeneID 22890)	SID134324079	-0.96	-0.86	-0.99	-1.02
CLDN4 (GeneID 1364)	SID134317830	-0.77	-0.39	-0.66	-1.28
CHL1 (GeneID 10752)	SID134316561	0.62	0.65	0.8	0.41
SIRAL2 (GeneID 55007)	SID134324560	0.4	1.17	0.39	-0.37
USP47 (GeneID 55031)	SID134311513	-0.4	-0.56	-0.4	-0.25
PTGFR (GeneID 5737)	SID134311146	-1.5	-1.59	-1.64	-1.29
MSL3 (GeneID 10943)	SID134316599	0.55	0.61	0.45	0.6
ACTB (GeneID 60)	SID134309901	-1.24	-1.33	-1.09	-1.3
LINC02877 (GeneID 152118)	SID134325771	0	0.04	-0.23	0.19
RNF5P1 (GeneID 286140)	SID134326423	0.36	0.61	0.33	0.14
DNHD1 (GeneID 144132)	SID134319877	0.99	0.97	1.17	0.84
DNHD1 (GeneID 144132)	SID134322159	-0.02	-0.46	0.14	0.24
DNHD1 (GeneID 144132)	SID134326639	0.29	0.18	0.39	0.32
DNHD1 (GeneID 144132)	SID134328303	0.86	0.56	1.03	0.99
POLG2 (GeneID 11232)	SID134323435	-0.44	-0.59	-0.3	-0.42
LOC391343 (retired record) (GeneID 391343)	SID134327206	-0.5	-0.51	-0.58	-0.42
DDR1 (GeneID 780)	SID56478491	0.06	-0.04	0.28	-0.06
SAMD15 (GeneID 161394)	SID134328498	0.84	0.76	0.79	0.98
ODAPH (GeneID 152816)	SID134322266	-0.29	-0.48	-0.22	-0.17
DPH1 (GeneID 1801)	SID134316838	0.15	0.09	0.18	0.18
FIGNL1 (GeneID 63979)	SID134322903	-1.26	-1.48	-1.48	-0.82
STX3 (GeneID 6809)	SID134319446	-0.2	0.14	-0.3	-0.44
TSC22D4 (GeneID 81628)	SID134311814	0.33	0.37	0.09	0.53
